Reference: paper PMC11410929, “Biochemical and crystallographic studies of L,D-transpeptidase 2 from Mycobacterium tuberculosis with its natural monomer substrate” (Communications Biology, 2024)

By UniProt entry, the sequences of proteins in these tests, tags left out. Residues count along the entry.
UniProt I6Y9J2, 56-408 limits assumed: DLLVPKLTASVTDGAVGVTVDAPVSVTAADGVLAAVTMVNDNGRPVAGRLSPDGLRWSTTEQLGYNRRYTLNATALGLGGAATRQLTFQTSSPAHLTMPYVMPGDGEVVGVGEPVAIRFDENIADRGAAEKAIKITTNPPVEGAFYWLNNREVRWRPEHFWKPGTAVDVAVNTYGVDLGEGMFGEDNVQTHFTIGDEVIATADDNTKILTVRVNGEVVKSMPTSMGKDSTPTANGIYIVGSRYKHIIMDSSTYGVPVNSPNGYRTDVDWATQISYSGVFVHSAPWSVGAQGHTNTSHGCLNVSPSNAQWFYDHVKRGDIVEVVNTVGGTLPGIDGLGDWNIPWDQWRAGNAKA

Columns and labels:
LdtMt2 [1] = biological target: T1, LdtMt2 (Mycobacterium tuberculosis, UniProt I6Y9J2); settings: cited from earlier work
LdtMt2 [2] = biological target: T1, LdtMt2; settings: pH 8

Row | Compound | Fluorogenic probe assay pIC50 (mean ± SD) (LdtMt2 [1]) | Transpeptidase activity assay pIC50 (mean ± SD) (LdtMt2 [2])
1 | NC(=O)C=CC(=O)Nc1ccc(Cl)cc1 | 6.4 ± 0.08 | 6.6 ± 0.1
2 | O=C1C=CC(=O)N1c1ccccc1 | 7.2 ± 0.03 | 6.5 ± 0.2
3 | O=c1c2cc(Cl)c(Cl)cc2sn1CCO | 8.0 ± 0.04 | 6.5 ± 0.2
4 | N#Cn1c(-c2cnc(-c3cccs3)nc2)nc2ccccc21 | 7.3 ± 0.06 | 6.6 ± 0.3
